Literature values, collected in PMC8284440, “Toward New Transmission-Blocking Combination Therapies: Pharmacokinetics of 10-Amino-Artemisinins and 11-Aza-Artemisinin and Comparison with Dihydroartemisinin and Artemether” (Antimicrobial Agents and Chemotherapy, 2021).

Assays:
HepG2 = conditions: ref 2 (supplement; main text 48); cited from earlier work
[1] = system: Chinese hamster ovary (CHO) cells; conditions: selectivity index; ref 1 and 2 (supplement; main text 47, 48); cited from earlier work

SMILES	SI (EC50 HepG2/IC50 P. berghei sporozoites) (HepG2)	SI (EC50 CHO/IC50 NF54) [1]
C[C@H]1[C@H](N2CCN(C(=O)Nc3ccc(F)cc3)CC2)O[C@@H]2O[C@@]3(C)CC[C@H]4[C@H](C)CC[C@@H]1[C@@]24OO3 [Arylurea 10]	48.9	156923
O=C1C(O)=C([C@H]2CC[C@H](c3ccc(Cl)cc3)CC2)C(=O)c2ccccc21 [Atovaquone]	> 100	–
COc1ccc(C[C@H](N)C(=O)N[C@H]2[C@@H](O)[C@H](n3cnc4c(N(C)C)ncnc43)O[C@@H]2CO)cc1 [Puromycin, reference compound]	5.15	–
